Pooled drug test results. Numbers come from NIAID ChemDB, via PubChem.

Common to all: tests in culture; organism: Aspergillus niger; measure: MIC

Neighbouring rows are from separate reports. Blank or dashed fields: not listed here.

structure | strain or isolate | method | result
Cc1ccc(N2NOC(=O)C2S(=O)(=O)Nc2nc(-c3c(F)cc(Cl)cc3Cl)cs2)cc1 | MTCC 282 | broth dilution | 1000 µg/mL
O=C(O)c1ccc(NC(=S)N/N=C/c2ccc(Cl)cc2)cc1 |  | agar diffusion | 1.38 µM
Oc1cccc2cccnc12 | ATCC 1004 |  | 8 µg/mL
Cn1c(=O)cc(Oc2nc(Nc3ccc(C#N)cc3)nc(Nc3nc4ccc(Cl)cc4s3)n2)c2ccccc21 | MTCC 2825 | agar | 100 µg/mL
O=C(O)c1ccc(NC(=S)N/N=C/c2ccccc2)cc1 |  | agar diffusion | 2.89 µM
FC(F)(F)c1ccc(COc2cccc3cccnc23)cc1 |  | broth dilution | >100 µg/mL
Cc1ccc(N2NOC(=O)C2S(=O)(=O)Nc2ccc(-n3c(-c4ccccc4)nc4ccccc4c3=O)cc2)cc1 | MTCC 282 | broth dilution | 1000 µg/mL
CN(C)c1ccc(/C=N/NC(=S)Nc2ccc(C(=O)NO)cc2)cc1 |  | agar diffusion | 1.69 µM
Cc1ccc(N2NOC(=O)C2S(=O)(=O)Nc2ccc(-n3c(-c4ccc(Cl)cc4)nc4ccccc4c3=O)cc2)cc1 | MTCC 282 | broth dilution | 250 µg/mL
Cc1ccc(-c2cc(-c3ccc4oc(=O)c(-c5ccccc5)c(C)c4c3)nc3c2Cc2ccccc2-3)cc1 | MTCC 282 | broth dilution / turbidity | 1000 µg/mL
O=[N+]([O-])c1cccc(COc2cccc3cccnc23)c1 |  | broth dilution | 25 µg/mL
C[N+](C)(C)CCn1[se]c2ccccc2c1=O |  | agar | >512 µg/mL
Cc1c(-c2ccccc2)c(=O)oc2ccc(-c3cc(-c4ccc(F)cc4)c4c(n3)-c3ccccc3C4)cc12 | MTCC 282 | broth dilution / turbidity | 250 µg/mL
Oc1cccc2oc(-c3ccccc3)cc(=Nc3ccccc3N=c3cc(-c4ccccc4)oc4cccc(O)c34)c12 |  | agar diffusion | 60 µg/mL
c1ccc(COc2cccc3cccnc23)cc1 |  | broth dilution | 12.5 µg/mL
O=c1c2ccccc2[se]n1C1C2CC3CC(C2)CC1C3 |  | agar | 10 µg/mL
O=C/C=C/c1ccccc1 | IOA-3 | broth dilution | 80 µg/mL
CN(C)c1ccc(/C=N/NC(=S)Nc2ccc(C(=O)O)cc2)cc1 |  | agar diffusion | 1.68 µM
CCn1[se]c2ccccc2c1=O |  | agar | 28 µg/mL
[Al]#[P] |  | agar | 3 µg/mL
CN(C/C=C/C#CC(C)(C)C)Cc1cccc2ccccc12 |  | broth dilution | 12.5 µg/mL
C[C@@H]1[C@H](O)[C@@H](C)/C=C/C=C/CC/C=C/C=C/C=C/C=C/C(O[C@H]2O[C@H](C)[C@@H](O)[C@H](N)[C@@H]2O)CC2O[C@](O)(CC(O)C(O)CCC(O)CC(O)CC(O)CC(=O)O[C@H]1C)CC(O)C2C(=O)O | ATCC 16888 | agar | 6.25 µg/mL
O=C1C(=O)c2ccccc2-c2ccccc21 | KACC 40280 | visual reading | 20 µg/mL
Oc1cccc2cc(Br)cnc12 | ATCC 1004 |  | 9 µg/mL
CCCCCC1CC(O)CC(=O)O1 | A420 | broth dilution | 187.5 µg/mL
Cc1c(-c2ccccc2)c(=O)oc2ccc(-c3cc(-c4ccccc4)c4c(n3)-c3ccccc3C4)cc12 | MTCC 282 | broth dilution / turbidity | >1000 µg/mL
Oc1ccc(Cl)c2cccnc12 | ATCC 1004 |  | 2 µg/mL
Cc1ccc(N2NOC(=O)C2S(=O)(=O)Nc2nc(-c3ccc(Cl)cc3Cl)cs2)cc1 | MTCC 282 | broth dilution | 500 µg/mL
Oc1cc(Br)cc2cccnc12 | ATCC 1004 |  | 2 µg/mL
O=c1c2ccccc2[se]n1CCO |  | agar | 242 µg/mL
Cc1ccc(N2NOC(=O)C2S(=O)(=O)Nc2nc3cc(C)ccc3s2)cc1 | MTCC 282 | broth dilution | 500 µg/mL
CCCNC(=O)n1[se]c2ccccc2c1=O |  | agar | 1 µg/mL
Cc1ccc(/C(Cl)=N/NC(=S)Nc2ccc(C(=O)NO)cc2)cc1 |  | agar diffusion | 1.67 µM
Oc1cccc2cc(Cl)cnc12 | ATCC 1004 |  | 6 µg/mL
Cc1c(-c2ccccc2)c(=O)oc2ccc(-c3cc(-c4ccc(F)cc4)c4oc5ccccc5c4n3)cc12 | MTCC 282 | broth dilution / turbidity | 250 µg/mL
Oc1cccc2ccc(Cl)nc12 | ATCC 1004 |  | >100 µg/mL
O=C(NO)c1ccc(NC(=S)N/N=C/c2ccccc2)cc1 |  | agar diffusion | 1.45 µM
O=[N+]([O-])c1ccc(COc2cccc3cccnc23)cc1 |  | broth dilution | >100 µg/mL
C/C(=N\NC(=S)Nc1ccc(C(=O)NO)cc1)c1ccccc1 |  | agar diffusion | 1.44 µM
Cn1c(=O)cc(Oc2nc(Nc3ccc(C#N)cc3)nc(Nc3nc4ccc(F)cc4s3)n2)c2ccccc21 | MTCC 2825 | agar | 25 µg/mL